These molecules were tested on Chinese Hamster Ovary (CHO) cells (assay: MTT in vitro cytotoxicity assay). Details: ratio CHO vs NF54.
Format: cell-based
Description: Test samples were screened for in vitro cytotoxicity against a mammalian cell-line, Chinese Hamster Ovary (CHO), using the 3-(4,5-dimethylthiazol-2-yl)-2,5-diphenyltetrazoliumbromide (MTT)-assay. The MTT-assay is used as a colorimetric assay for cellular growth and survival, and compares well with other available assays. The tetrazolium salt MTT was used to measure all growth and chemosensitivity. The test samples were tested in triplicate on one occasion. The same stock solutions prepared for antiplasmodial evaluation were used for cytotoxicity testing. Test compounds were stored at -20°C until use. Dilutions were prepared on the day of the experiment. Emetine was used as the reference drug in all experiments. The starting concentration was 100 μg/ml, which was serially diluted in complete medium with tenfold dilutions to give six concentrations, the lowest being 0.001 μg/ml. […] The IC50 values were obtained from full dose–response curves, using a nonlinear dose–response curve fitting analysis via GraphPad Prism v.4 software. […]

`O=C(NO)c1ccc(Cn2c3c(c4ccccc42)C[S+]([O-])CC3)cc1` (racemic) [Compound 1j] was tested, and the “SI (selectivity index) = IC50 (CHO)/IC50 (NF54)” value (“SI (selectivity index) = IC50” below) was greater than 217.
In the case of `O=C(NO)c1cccc(Cn2c3c(c4ccccc42)CSCC3)c1` [Compound 1n], the “SI (selectivity index) = IC50” value is reported as greater than 199.

Point of comparison: `O=C(NO)c1cccc(Cn2c3c(c4cc(F)ccc42)CSCC3)c1` [Compound 1o], “SI (selectivity index) = IC50” value 36. Against it:
- O=C(NO)c1ccc(CN2c3cc(C(F)(F)F)ccc3SCC3CCCC32)cc1 (racemic) [Compound 3c] — higher, 40
- O=C(NO)c1ccc(CN2c3cc(Cl)ccc3S(=O)(=O)CC3CCCC32)cc1 (racemic) [Compound 3e] — higher, 75
- O=C(NO)c1ccc(CN2c3cc(C(F)(F)F)ccc3S(=O)(=O)CC3CCCC32)cc1 (racemic) [Compound 3f] — higher, 65
- O=C(NO)c1ccc(Cn2c3c(c4cc(F)ccc42)CSCC3)cc1 [Compound 1c] — higher, 48
- O=C(NO)c1ccc(NCc2csc3ccccc23)cc1 [Compound 2a] — lower, 8
- O=C(NO)c1ccc(NCc2csc3ccc(Br)cc23)cc1 [Compound 2c] — lower, 30
- O=C(NO)c1ccc(NCc2csc3cc(Br)ccc23)cc1 [Compound 2g] — lower, 35
- O=C(NO)c1ccc(NCc2csc3cc(-c4ccccc4)ccc23)cc1 [Compound 2i] — lower, 9
- O=C(NO)c1ccc(CN2c3ccccc3SCC3CCCC32)cc1 (stereo not shown) [Compound 3a] — higher, 65
- O=C(NO)c1ccc(CN2c3ccccc3[S+]([O-])CC3CCCC32)cc1 (stereo not shown) [Compound 3g] — higher, 138

Source: PMC7099625, “Exploration of thiaheterocyclic hHDAC6 inhibitors as potential antiplasmodial agents” (Future Medicinal Chemistry, 2017)
